Test results from paper PMC6154617.
Where a protein sequence is shown, tags need not be part of it. Construct, isoform or probe ends are uncertain for at least one entry.

Target: T1, rRex (SsRex) (Streptococcus suis serotype 2 strain SS2-1) (UniProt A0A0H3MUY0)
T1 sequence (looked up): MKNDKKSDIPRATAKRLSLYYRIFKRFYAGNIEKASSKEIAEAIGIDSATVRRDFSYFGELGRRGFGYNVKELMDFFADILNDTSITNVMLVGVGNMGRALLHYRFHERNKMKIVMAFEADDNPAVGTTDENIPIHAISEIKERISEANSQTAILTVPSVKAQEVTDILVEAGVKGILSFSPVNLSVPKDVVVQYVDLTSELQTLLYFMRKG
Test: EMSA
Details: 20 mM Tris pH 8.0, 1 mM EDTA, 75 mM KCl, 2 mM DTT, 10% glycerol, 20 min at 30 C (plus 15 min with NAD+/NADH), 6% PAGE in 0.5x TBE, ethidium bromide, recombinant protein, residues 1-212, protein details: His tag (pET-28a, HisTrap), probe letters rebuilt from the primers and the genome

Sequence | binding result | binding result (no added NAD(H)) | further results
AGCCATAGGGCTACGACAAATATTTCCAAGACAGACAAAAACGATTTTTTTCATAGATACTCCTTTCGTGACATAAGAAAAGAGAAGGTAGACTCGACAGGTAAATGTCTGAGTTCCCCTCTCTTGCATATTTTTGTTCGGGCTATAGGTAAAAGACCAAATTAAGTGTAATGTTCATTATCAAACAGTGCACGACCAATCCTACCTATATTGAACTCTTTGTTTATTTCTCTTCTTTGTCGAAAGCATTTTTGATGCCGTTAATGGCACCTTCAAGCCCATCTTTTGCATCTTCGACTAGCTCTTTTGCTTTGCCAATTCCTTTCTCAACAAGTCCTTCAACTTCGATTTCCTTGTCGCCGGTCAGCTTACCAATTACCTCTTTTGCAGATCCAGATAGCTGTTCTAGTTTTGCGTCAAATTTTTCTTCTGACATAAAATCCCTCCTCGATATACACATATGGGGGCGATGATTTTCTAAAAAGAAAATCACATACTATTCTTACTTACTAGTCTAACGTATATAAGTTAATATAGCAAGGAATTTGTCTGCCAATAATTCAGAGGAGGAGGGATAATTCTTGCAATTTTTTCTTCTTTTATTTATAATTATTATAAATAAAAGAAAGGGTGATATATGATGAAACAAAAATATTATCAATCTCCAGCAGAAATTGCGTCTTTCAGCCCGCGTCCATCACTGGCTGATTCTAAGGCTGTTTTGAATCAAG (double strand) [Pdpr] | binds |  | 
GACTTACCTCCACACGCCACTAAAAACAAAACAGCAAGTAGACTCATTAATAAGCCTAACCAAGCTTTCTTTTTCATATAAACCTCCAATTTTTATCTGGTATTAGTATTATACAAGATTGTGAAATGTTTTTCAATTTGTTTTGAAATATTTTCACAAACATGAACAAAAAAATGTATGATATCCGCTTCATACATTCTTAAAACTATTTACTGCCCTTGAAGAGCTAAAAAATTCTCTATTTCGGATAGCGTTGCTTGGCTCCCTTTACGGAGTATTCCAGATAATTTACCTGATTTATAGTAGGTTAAGCTAGGAACCGTAGCAAGACCTTGACTCTGTCGAAATTGTTGTATTTTTCCATTCGGATCCGACTCGCTATCTAAATAGTAGATCGTCGCATGTGATTGCTCTACTGCCTCTGTTAATTTCGGAACAAAATCACGACAATAAGGGCATGTCTCACGACCTATGTATAATATAAATTCTTCCTCGTCTTGGACCTTTTGCTCCACTTCGTCTATC (double strand) [PfrdA] | binds |  | 
CACTTTAGACTCCTTTATTTCGATAGAATACGCTTTATCGATTATTTATATATTAAACAGTTCTTTATTCTATTCTAGTCCAAGTTTGTGAAAAAATCAACAGATTGATTTTAAAAAAAGATTAAACAGGAAACTGTCTAATCTAGTGTTTGTAAATAGCGATAGAGATCTCCGATTGTCCCTTTGTAATCCAGAGCTTGTCCGTTTTGTGTAATGCTGGTAACTGGATAATAGTCTGGGAGGGTTAAGCAACCGGAAAAAGCCAGAATGGCTGCATCCTTATTCTCAAATGTTTGGATACGTTCTTGCTTGTAAGCGTCAAGATAGTGAATT (double strand) [Prex] |  | binds | binding result (10 mM NAD+, 50 ng rRex): binds; binding result (10 mM NADH, 50 ng rRex): binds
CCGTCACCGACAAGGATTACTTTTTTGTGTTGTTTAGTTGCAGTCATTGCTAAACATCTCCTTAGTTTTATTTGGGGATGACTTCATCCCAACCATAATACATTCTAGCATGTTTTAAGCTTTTTGTCACTTGTGAAAGCGCCTTTGAAAATGTTTACATGCTAGTTTCCAACAAAGAAATTTATTCGCCAATATGGTATAATAGAAGCACAATGACTGTTGAAAGAGGCATATAATGCAAGATAAAAATTTAGTAACGGTTAATCTGACCAATGAGATGAAATCATCCTTCATCGACTATGCGATGAGTGTTATCGTTTCACGTGCTCTGCCTGATGTACGTGATGGTCTGAAGCCGGTTCATCGCCGTATTTTGTATGGGATGAATGAATTAGGGATTACACCGGATAAACCACATAAAAAATCAGCCCGTATCACAGGGGATGTTATGGGTAAATATCACCCGCATGGAGATAGTGCGA (double strand) [Pldh] |  | binds | binding result (50 mM NAD+, 50 ng rRex, better than ParcA): binds
CAATTTTCTTTCGGGGAAAACAACTTTTTAACCACCCATGGGTTCCCCCCAAATATATTTGCAAACAATTTGTTAACTTTTCCCCAAGGTAATCCAACAATTTTTAATTTAATTGGAAAAAAAAAATGGTAAATTTTTCCAAATTTTTCCGGTTTGGTTTGGAAAAGCCCTTACTTTTTCCTGTTTTCAGAAAACGTTCAGATTTGTTTCTGCTTTGTTTGGTCGAAAAATACATAAAGTAAGACAAATCTTTATCATTTATTCTTTCTCTAACATTTACGATACTAGTTTATCAAGAAAACGCTTCCATGTAAATAGATTTTTTTGAAAATTTTGTAGTAATTACGTGATAATTTTCAATTTTATATTCATTTGTCCCTCCTTTTCTACTCTTGCATTTTTGTTCACATTGTGATATTCTTAACAATATAAAACAACTATATTAACACATCCAAAAATGTACATAAAATATTAAAACAGGAGGTCTGCTTATGAAAGCAG (double strand) [PadhE] | binds |  | 
GTACGCTTTCCTGCCTCTCATTTCCTCTTTACATCCATAGTTTAACAGAGCAAAAAAACAAAAACTTGAAAACGCTCACATTTATTTTGAGAAATTCTTCACATTTTTAACCTTATTTATAAATAATTATCGATTATATCATCTAAATTCTGCATAATTCTTTCCGTTATATCATTATATGAATTTTTATTTTTTTATAAAAAACAGAAACTTCAATGAGTTTCTGTCAAATTTTCTAAGAAATAATCAATATCTAAATAAGTTAACTGTTTATGGCTATAAGCTATTTTACCATCCTGCTTCAGTTGCTTCAAAACATGGCTAACCGTTTCCCGTGTCGTAGCTGCTAAACGCGAAATCTCTTGAATATGAATTTCAAATGGCAAGGTAGCAAACTGCTCTCGCTGGCACATATCCCAATAAAGAAGAGCCAAG (double strand) [ParcA] |  | binds | 
TGTTCTGTCGGTAGGGAGCTTTCTGCCGGATAAACATTTGTCCGTATTTTTTCTTTTAAGTCATTATAAATTTCTTGGTATTTTTTCATCATTTCCTCGCAAATTCATCTGTCAAATAACATACAACTATCAACATTATAACAAAATTCATTTCAAAATTAAAAAAAACTAAGCAAAAACGCTTGCATTATTTTTTGAAATCGGATACAATGATAACACAAAAGAAATTTGTCCGTACAAATTTCAAAAAAGGACATGCTTCGAGAGATGTCTAAAAAATATAGGGTGACGGATTCCATAAGCCGTCTAGAAGGAAAAATATATGGGAAAATTTGAAAAAGAAGCCAAACAGCTCCTAGAAGCTATTGGCGGAAAAGAGAATGTCAATGCAGTAACACACTGTGCAACGCGCATGCGCTTTGTTCTTGCAGATGAGAAAAAAGCAAACGTAAAAGTCATCGAAGACATTCCAGCAGTAAAAGGAACATTTACCAACGCTGGTCAATTCCAAGTCATCATCGGTAACGATGTACCAATCTTCTACAATGACTTTACAGCTGTGTCTGGTATCGAAGGCGTATCAAAAGA (double strand) [PtreR] | binds |  | 
